In patent publication US5334583A (priority 1982, dated 1994):

Legend:
Type in all cases: in vivo
[1] = system: Influenza B/Hong Kong/5/72; assay: Survival of mice infected intranasally with lethal dose of Influenza B/Hong Kong/5/72
Encephalomyocarditis = assay: Survival of mice infected intranasally with lethal dose of Encephalomyocarditis virus; conditions: oral, control 30
Herpes Simplex 1/TUP = assay: Survival of mice infected intranasally with lethal dose of Herpes Simplex 1/TUP; conditions: intranasal, control 20
Method: Groups of 30, 40 or 50 female MF-2f SPF mice each having a body weight of 14-16 g, or of 12-14 g in the case of tests with herpes simplex 1 viruses, are infected intranasally, under light anaesthesia using a mixture of equal parts of ether, ethanol and chloroform, with lethal doses (approximately LD80-90; number of plaque-forming units [PFU] see Table 1 ) of the undermentioned virus strains in the form of 0.05 ml in each case of a suspension of the viruses.
At the time indicated below (days) in relation to the day of infection, 10 or 20 of these mice are administered once (single dose) the quantities indicated in Table 1 of the active ingredient, the sodium salt of N-acetylmuramyl-L-alanyl-D-isoglutaminyl-L-alanine-2-(1,2-dipalmitoyl-sn-glycero-3-hydroxyphosphoryloxy)-ethylamide (compound I), in 0.05 ml or 0.1 ml of phosphate-buffered salt solution (PBS) or in 0.2 ml of a 0.05 % by weight solution of sodium carboxymethylcellulose in double-distilled water, by means of intranasal, intravenous or oral administration respectively, in the manner indicated in Table 1 .
The remainder of the above-mentioned mice, that is 20 or 30, serve as the control, that is to say they either receive no treatment or are given a placebo.
The intranasal administration of compound I is effected under light anaesthesia using a mixture of equal parts of diethyl ether, ethanol and chloroform.

Herpes Simplex 1/Virtue = assay: Survival of mice infected intranasally with lethal dose of Herpes Simplex 1/Virtue; conditions: intranasal, control 40

Measured: Percentage survivors

CCCCCCCCCCCCCCCC(=O)OC[C@H](COP(=O)(O)OCCNC(=O)[C@H](C)NC(=O)CC[C@@H](NC(=O)[C@H](C)NC(=O)[C@@H](C)O[C@H]1[C@H](O)[C@@H](CO)OC(O)[C@@H]1NC(C)=O)C(N)=O)OC(=O)CCCCCCCCCCCCCCC (stereo partly drawn) [compound I, N-acetylmuramyl-L-alanyl-D-isoglutaminyl-L-alanine-2-(1,2-dipalmitoyl-sn-glycero-3-hydroxyphosphoryloxy)-ethylamide]
100%: [1]; intranasal, day -7, 10 mg/kg single dose, control 30 | [1]; intravenous, day 0, 10 mg/kg single dose, control 42 | [1]; intravenous, day 0, 100 mg/kg single dose, control 42 | [1]; intravenous, day +2, 100 mg/kg single dose, control 42 | [1]; intravenous, day +6, 100 mg/kg single dose, control 42 | [1]; intravenous, day -1, 100 mg/kg single dose, control 42 | [1]; intravenous, day -2, 1 mg/kg single dose, control 42 | [1]; intravenous, day -2, 100 mg/kg single dose, control 42 | [1]; intravenous, day -5, 10 mg/kg single dose, control 42 | Encephalomyocarditis; day 0, 10 mg/kg single dose | Herpes Simplex 1/Virtue; day -7, 1 mg/kg single dose
80%: [1]; intranasal, day -7, 1 mg/kg single dose, control 30 | [1]; intravenous, day +1, 10 mg/kg single dose, control 42 | [1]; intravenous, day +1, 100 mg/kg single dose, control 42 | [1]; intravenous, day +6, 10 mg/kg single dose, control 42 | [1]; intravenous, day -1, 1 mg/kg single dose, control 42 | [1]; intravenous, day -5, 1 mg/kg single dose, control 42 | [1]; oral, day +7, 100 mg/kg single dose, control 15 | Encephalomyocarditis; day 0, 100 mg/kg single dose | Encephalomyocarditis; day +2, 10 mg/kg single dose
50%: [1]; oral, day +3, 100 mg/kg single dose, control 15 | [1]; oral, day +7, 1 mg/kg single dose, control 15
70%: [1]; intravenous, day +2, 10 mg/kg single dose, control 42 | [1]; intravenous, day +6, 1 mg/kg single dose, control 42 | [1]; intravenous, day -7, 1 mg/kg single dose, control 42 | [1]; intravenous, day -7, 10 mg/kg single dose, control 42 | Herpes Simplex 1/TUP; day -7, 10 mg/kg single dose
60%: [1]; intravenous, day +1, 1 mg/kg single dose, control 42 | Encephalomyocarditis; day 0, 1 mg/kg single dose | Encephalomyocarditis; day +2, 100 mg/kg single dose | Herpes Simplex 1/TUP; day -7, 1 mg/kg single dose
90%: [1]; intravenous, day 0, 1 mg/kg single dose, control 42 | [1]; intravenous, day +2, 1 mg/kg single dose, control 42 | [1]; intravenous, day -1, 10 mg/kg single dose, control 42 | [1]; intravenous, day -2, 10 mg/kg single dose, control 42 | [1]; intravenous, day -5, 100 mg/kg single dose, control 42 | [1]; intravenous, day -7, 100 mg/kg single dose, control 42 | [1]; oral, day +7, 10 mg/kg single dose, control 15 | Encephalomyocarditis; day +2, 1 mg/kg single dose | Herpes Simplex 1/Virtue; day -7, 10 mg/kg single dose
